Primary screen of a compound library

Measurements from “University of Dundee, Small-Polar-MMV Screening Library” (2021), ChEMBL document CHEMBL3988442.

Mtb cholesterol medium: 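Phenotypic screen: M. tuberculosis growth, cholesterol and DPPC medium, 4 days; the read-out is not stated. Tested at 50 µM. The record gives no direction; compounds that gave an IC50 in retests scored well above the rest, so higher reads as more growth inhibition. Size under these conditions: about 69,000 compounds, about 370 of them at 50% or above in at least one test.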
Mtb glucose medium: 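Phenotypic screen: M. tuberculosis growth, glucose 7H9 medium, 3 days; the read-out is not stated. Tested at 50 µM. Higher reads as more growth inhibition (inferred: compounds with an IC50 in retests scored well above the rest). Size under these conditions: about 69,000 compounds, about 760 of them at 50% or above in at least one test.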

Each number is a percent effect as filed.
The controls that fix the scale are not given in the record; negative values are as filed.
Many other results are left out here, so strong results are more common than in the screen.
Two or more numbers in one place are separate tests of the same structure; such repeats can differ widely.
A dash means the value is not listed here; it may have been measured.

compound | Mtb cholesterol medium | Mtb glucose medium
Cc1cnc(C)c(N2CCN(Cc3ccc(C)c(C)c3)CC2)n1 | 0.09384% | -
Cc1ncsc1C(=O)NCc1cccs1 | -4.726% | 10.92%
CN(C)CCNC(=O)C1Cc2nc(-c3ccccc3)sc2N1CC1CC1.O=C(O)C(F)(F)F (configuration not stated) | - | 60.4%
CCCSCC(=O)N1CCN(c2ccc(C)cc2)CC1C (configuration not stated) | - | 28.73% and 12.72%
[H][C@@]12CCCCN(C)[C@]1([H])[C@@H](c1ccccc1)CCN2C(=O)c1ccccc1 | - | 57.53%
CN(C)CCN(C)c1ccc(-c2nc(COc3ccccc3)no2)cn1 | 51.64% | 41.9%
COc1c(F)cc(CN2CCC3(CC2)C(C(=O)O)CC(=O)N3C)cc1Cl (configuration not stated) | - | -0.1314% and 3.006%
COCCNc1cc(-c2ccccc2CCN)c2cc[nH]c2n1 | - | 24.08%
Cc1ccc(NC(C)C(=O)NCc2cccs2)cc1C (configuration not stated) | 14.59% | -
Cc1ccc(NC2CCCN(C3Cc4ccccc4C3)C2)nn1 (configuration not stated) | - | -21.31% and -0.9861%
CC(C)c1ccc(O)c(C(=O)NC2CCN(c3ncccn3)CC2)c1 | - | 56.77% and 51.15%
c1cncc(O[C@H]2COCCN(Cc3c[nH]c4ccccc34)C2)c1 | - | 1.197% and -11.46%
COCCN(c1ccncc1)S(=O)(=O)c1cc(C)c(F)cc1F | - | -3.79% and -19.09%
CC(Cn1cc(Br)cn1)C(=O)Nc1ccc(Br)cn1 (configuration not stated) | - | 55.2%
CN1CCc2nc(C3CCCN(S(=O)(=O)c4ccccc4)C3)ncc2C1 (configuration not stated) | - | 26%
NCCc1nc(N(Cc2cncs2)C2CC2)c2ccccc2n1 | - | -7.703%
CC(C)c1nccn1C1CCCN(C(=O)c2ccc3[nH]nnc3c2)C1 (configuration not stated) | 74.53% | -
c1nc2c(c(N3CCOC(Cn4cncn4)C3)n1)CCC2 (configuration not stated) | - | -1.978% and 9.557%
CNC(=O)NC(C)c1nc(-c2ccccc2)c[nH]1 (configuration not stated) | - | -11.8%
CN1CCOC[C@H]1c1nc(-c2ccccc2)c[nH]1 | - | 0.9532% and 3.666%
CCC[C@H]1CN(Cc2ccc3c(c2)OCCO3)C[C@@H]1NC(=O)COC | -0.4831% and -2.139% | -
Cc1noc(C(C)Nc2ccc3oc(=O)[nH]c3c2)n1 (configuration not stated) | -16.35% | -
COc1cc2cc3c(nc2cc1OC)OCCN(CC1CC1)C3 | - | 10.45%
Cc1oc(-c2ccc(Cl)cc2)nc1C(=O)NC1=NCCS1 | 17.42% | 42.14% and 40.33%
CC(O)CN1CCC(CNCc2c[nH]nc2C(C)(C)C)CC1 (configuration not stated) | 55.97% | 8.335%
O=C(NCCc1c[nH]c2ccccc12)C1CCC(Cn2cnnn2)CC1 (configuration not stated) | - | -8.585%
CCCNC(=O)c1ccc(NC(=O)c2cccc(OCC)c2)cc1 | - | 50.51%
O=C1CCC2(CCN(Cc3ncccn3)CC2)CN1CCCO | - | 9.659%
Cc1csc(N2CCN(C(=O)CCC(=O)c3ccc(C)s3)CC2)n1 | - | 35.79%
CC(C)Cc1cc(NC(=O)c2cccnc2)n(C)n1 | - | 39.38%
CCn1nccc1CNC(=O)C1CCCO1 (configuration not stated) | - | 8.513%
N#Cc1cccc(OC23CCCN(CC2)C3)c1 (configuration not stated) | -15.56% | -2.537% and -34.25%
CN1CCC(CNC(=O)c2cccc(NC(N)=O)c2)c2ccccc21 (configuration not stated) | - | 11.74% and 8.752%
CCOc1ccccc1CN1CCc2nc3ccsc3c(=O)n2CC1.Cl | -2.728% | 27.94%
CC(Nc1ccc2c(c1)CCC2)c1nc(C2CC2)no1 (configuration not stated) | 57.35% | 40.23%
CCCS(=O)(=O)N1CCN(c2cc(-n3cnc(C)c3C)nc(C)n2)CC1 | - | -37.82%
Fc1ccc(Cn2ncc3c2CN(c2ncccn2)C3)cc1 | 8.068% and 21.15% | -
CC(=O)Nc1ccc(CN2CCCC(c3cc4ncccc4[nH]3)C2)cc1 (configuration not stated) | 4.881% and -3.235% | -
CCn1ncc(-c2cc(C(F)(F)F)nc(N3CCC(N)CC3)n2)c1C | 22.77% | 47.95% and 43.22%
N#CCCN(C(=O)CN1CCCC1Cc1ccccc1)c1ccccc1 (configuration not stated) | - | 36.86%
COCCN1CCN(c2ccc(C)nn2)Cc2cccnc21.O=C(O)C(F)(F)F | - | 3.519% and 14.19%
COCc1nc2cc(NCc3ccncc3)ccc2o1 | -3.5% and 11.79% | -
CCOCC1CN(Cc2ccsc2)Cc2cnn(C)c21 (configuration not stated) | - | -18.96%
CCNC(c1ccc(C)cc1)c1cccnc1 (configuration not stated) | - | 13.7%
COc1ccc(CN(C)Cc2c(C)noc2C)c(Cl)c1OC | - | -7.436%
COc1ccc(NC(=O)NC(C)(C)c2noc(C)n2)cc1 | - | -19.04% and 0.3578%
COc1cc2c(cc1CNC(Cc1cccs1)c1nccs1)OCCO2.Cl (configuration not stated) | 13.68% and 19.3% | -
O=C(c1ccnn1COc1ccc(Cl)cc1)N1CCSCC1 | - | 9.147% and 9.725%

6 of the entries, repeated:

compound,Mtb cholesterol medium,Mtb glucose medium
c1nc2c(c(N3CCOC(Cn4cncn4)C3)n1)CCC2 (configuration not stated),-,-1.978% and 9.557%
O=C(NCCc1c[nH]c2ccccc12)C1CCC(Cn2cnnn2)CC1 (configuration not stated),-,-8.585%
CCn1ncc(-c2cc(C(F)(F)F)nc(N3CCC(N)CC3)n2)c1C,22.77%,47.95% and 43.22%
O=C1CCC2(CCN(Cc3ncccn3)CC2)CN1CCCO,-,9.659%
Cc1cnc(C)c(N2CCN(Cc3ccc(C)c(C)c3)CC2)n1,0.09384%,-
N#CCCN(C(=O)CN1CCCC1Cc1ccccc1)c1ccccc1 (configuration not stated),-,36.86%